Reference: article PMC11723632 (PLOS Pathogens, 2024)

B1: Nanosota-EB2-His (VHH)
VHH: QVQLQESGGGVVQAGGSLRLSCSASGRTFSNYAMAWFRQAPGKDREFAAGINYNGERTAYADSVKGRFTISRDDAKNTVYLQMNSLKPEDTAVYSCAARPWSIANLAYTYDSWGQGTQVTVSS
B2: Nanosota-EB1-His (VHH)
VHH: QVQLQESGGGQVQAGGSLRLSCAASGSTSVIYAMGWYRQAPGKQRELVAAITRGVGSTNYADSVKGRFTISRDNAKNTMYLQMNSLKPEDTAVYYCNARLLVAPPPYEYDYWGQGTQVTVSS

Biological target: EBOV GP-ΔM (EBOV GP ectodomain lacking the mucin-like domain) (Zaire ebolavirus, Mayinga-76 …, UniProt Q05320, excluding residues 312–463, N-linked glycan on Asn563)
Test: cell-based or functional assay

| Protein | increase of the melting temperature of GP-ΔM (DSF, neutral pH) [°C] |
| --- | --- |
| B1 | 6 |
| B2 | 1 |
